Results on one sequence are retold here after patent publication US6514698.

Construct, isoform or probe ends are uncertain for at least one entry.

For the data set, the target named is M.HaeIII DNA methyltransferase (UniProt P20589). Put plainly: activity assay. Conditions: background 501; purified recombinant protein.

As to “GGTGGGAGAAGAAGATAAAAAGTAACATCTTTCTGCCTTCCAGATGATTCGAAGAATTTCTCCATCCAAGTGCGGCAGGTGGAGGATTGCCCTGTGGACATCTACTACTTGATGGACCTGTCTTACTCCATGCCGGATGATCTGTGGAGCATCCAGAACCTGGGTACCAAGCTGGCCACCCAGATGCGAAAGCTCACCAGTAACCTGCGGATTGGCTTCGGGGCATTTGTGGACAAGCCTGTGTCACCATACATGTATATCTCCCCACCAGAGGCCCTCGAAAACCCCTGCTATGAGTAAGTCCCTCCTCCAGACGCCAGGACAGCATCCTTTGCCCAGGAAGGTCCAAGTCCTGGTTCCTA (double strand) [GPIIIa Yukb/b 362 bp amplicon]”, the activity on this sequence turned out to be 34200 cpm.
